## RC index of single-base changes in HIV-1 Vpu

Reference: Al-Mawsawi et al. 2014, doi:10.1186/s12977-014-0124-6.

Protein: Vpu of HIV-1 NL4-3, numbered from its first residue. The source prints no sequence; the chain below is taken from UniProt P05923, a closely related isolate, with 3 of its residues set to the source's, and fits the source at the 74 positions it covers.
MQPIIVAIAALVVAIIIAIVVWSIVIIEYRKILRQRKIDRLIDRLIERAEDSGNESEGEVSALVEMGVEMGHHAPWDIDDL
"Other frame" gives the effect on an overlapping gene as the source lists it; other overlaps (genes, RNA elements) are not shown.

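Seven fragments of pNL4-3 were mutated by error-prone PCR, and each virus pool was passaged in CEM T cells. Sequencing gave the RC index: frequency after two rounds over frequency in the input plasmid.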

Values are the RC index; higher means better tolerated. The authors read about 0.1 or less as lethal, 0.1-0.2 as attenuated and 0.2 or more as tolerated.
Substitutions are written as wild-type residue, site number, new residue.
Since each clone held several changes (about five per kb), neutral changes can read low.
Nucleotide positions follow pNL4-3.
The authors read an index above 1 as above wild type (1.9% of all changes in the genome).

For Y29H (base T6145C) the result was 0.107.
For P3H (base C6068A) the result was 0.103.
For G53R (base G6217C) the result was 0.0366.
For K31E (base A6151G) the result was 0.528.
For A7S (base G6079T) the result was 0.0923.
For L33I (base T6157A) the result was 0.0350.
For P3L (base C6068T) the result was 0.288.
For R48K (base G6203A) the result was 0.525.
For I5V (base A6073G) the result was 0.904.
For I24K (base T6131A) the result was 0.0527.
For W22C (base G6126T) the result was 0.639.
For I15M (base A6105G) the result was 0.0506.
For D51H (base G6211C) the result was 0.129.
For I27L (base A6139T) the result was 0.857.
For D51N (base G6211A) the result was 0.698.
For A14G (base C6101G) the result was 0.479.
For V68M (base G6262A, other frame Env silent) the result was 0.117.
For S56G (base A6226G, other frame Env silent) the result was 0.0661.
For A49S (base G6205T) the result was 0.0654.
For Y29F (base A6146T) the result was 0.0397.
For I42F (base A6184T) the result was 0.276.
For I19T (base T6116C) the result was 0.0764.
For L81M (base C6301A, other frame Env silent) the result was 0.129.
For V21E (base T6122A) the result was 0.0381.
For I16T (base T6107C) the result was 0.179.
For S23T (base T6127A) the result was 0.0292.
For I24M (base A6132G) the result was 0.364.
For L41S (base T6182C) the result was 0.285.
For V13L (base G6097T) the result was 0.0769.
For V20L (base G6118C) the result was 0.0415.
For A10P (base G6088C) the result was 0.0874.
For A7P (base G6079C) the result was 0.104.
For R44I (base G6191T) the result was 0.113.
For I15L (base A6103T) the result was 0.150.
For G53S (base G6217A) the result was 0.235.
For L11I (base T6091A) the result was 0.105.
For A14P (base G6100C) the result was 0.773.
For L11V (base T6091G) the result was 0.120.
For V13L (base G6097C) the result was 0.0760.
For I24L (base A6130T) the result was 0.368.
For I17T (base T6110C) the result was 0.115.
For E57K (base G6229A, other frame Env silent) the result was 0.633.
For M1K (base T6062A) the result was 0.0371.
For I19K (base T6116A) the result was 0.923.
For I4T (base T6071C) the result was 0.0629.
For S52C (base A6214T) the result was 0.0350.
For I26T (base T6137C) the result was 0.146.
For D39N (base G6175A) the result was 0.389.
For I15T (base T6104C) the result was 0.539.
For I4K (base T6071A) the result was 0.0671.
For I46L (base A6196T) the result was 0.0149.

The opening 5 entries, copied out:

substitution,base,other frame,RC index
Y29H,T6145C,none,0.107
P3H,C6068A,none,0.103
G53R,G6217C,none,0.0366
K31E,A6151G,none,0.528
A7S,G6079T,none,0.0923